The source of these data is article PMC2008936 (British Journal of Cancer, 1973).

This test deals with bacterial strains used in this work. The test is described as follows: Direct toxicity of the compound alone (no liver preparation) to the bacterial strains. The conditions noted are these: at the concentrations used.

Regarding aflatoxin B1, the “Toxicity of the compound alone (without liver preparation)” value is reported as “None of the bacterial strains used in this work were killed”.
